A mixed list of measured activities; the numbers were collected in NIAID ChemDB.

Shared fields: growth or infection tests; species: Herpes simplex virus 2; read by: cytopathic effect; read-out: EC50

ECn is the concentration giving n% inhibition of infection, replication or growth. Conditions beyond the fields shown may differ between rows.

SMILES	cells	strain	value
OC[C@H]1O[C@@H](c2cc(Br)c(F)cc2F)C[C@@H]1O	E6SM	196	>400 µg/mL
Nc1nc2c(ncn2COC(CO)CO)c(=O)[nH]1	VERO	K979	<0.3 µg/mL
Nc1nc2c(ncn2COCCO)c(=O)[nH]1	HFF	M23277 (acyclovir-susceptible)	2.5 µg/mL
O=[N+]([O-])c1cc([C@H]2C[C@H](O)[C@@H](CO)O2)c(F)cc1F	E6SM	196	>400 µg/mL
OC[C@H]1O[C@@H](c2cc(C#CI)c(F)cc2F)C[C@@H]1O	E6SM	196	>400 µg/mL
CCCCCCCC/C=C/CCCCCCCC(=O)OCC(CO)OCn1cnc2c(=O)[nH]c(N)nc21	HEL	HS-47 (TK+)	0.0006 µM
CC(C)NS(=O)(=O)c1ccccc1C(=O)NNC(=O)c1ccc(Cl)cc1	HEL	G	>100 µM
[N-]=[N+]=NCc1cn([C@H]2C[C@H](O)[C@@H](CO)O2)c(=O)[nH]c1=O	PRK	LYONS	7 µg/mL
O=c1[nH]c(=O)n([C@H]2CC[C@@H](CO)O2)cc1/C=C/Br	PRK	LYONS	1 µg/mL
O=c1c2ncn(COCCO)c2nc2[nH]c(-c3ccccc3)c(Cc3ccc(F)cc3)n12	HEL	LYONS	>16 µg/mL
OC[C@H]1O[C@H](c2cc(Cl)c(F)cc2F)C[C@@H]1O	E6SM	LYONS	>400 µg/mL
Nc1ncnc2c1ncn2[C@@H]1O[C@H](CO)[C@@H](O)[C@H]1OP(=O)(O)OC[C@H]1O[C@@H](n2cnc3c(N)ncnc32)[C@H](OP(=O)(O)OC[C@H]2O[C@@H](n3cc(F)c(=O)[nH]c3=O)C[C@@H]2O)[C@@H]1O	PRK	G	70 µg/mL
O=c1[nH]c(=O)n([C@H]2C[C@H](O)[C@@H](CO)O2)cc1CCCl	PRK	G	<2.1 µg/mL
O=c1c2ncn(COCCO)c2nc2[nH]c(-c3ccc(C(F)(F)F)cc3)cn12	HEL	G	>16 µg/mL
OC[C@H]1O[C@@H](c2cc(/C=C/Br)c(F)cc2F)C[C@@H]1O	E6SM	G	>400 µg/mL
COc1ccc(-c2[nH]c3nc4c(ncn4COCCO)c(=O)n3c2C)cc1	HEL	G	1.92 µg/mL
CCCc1cn([C@H]2C[C@H](O)[C@@H](COP(=O)(O)O)O2)c(=O)[nH]c1=O	PRK	G	5 µg/mL
O=c1c2ncn(COCCO)c2nc2[nH]c(-c3ccc(F)cc3)cn12	HEL	196	>16 µg/mL
Cc1ccc(C)c(NC(=O)CN2C(=O)c3ccccc3S2(=O)=O)c1	HEL	G	>100 µM
O=Cc1cn([C@H]2C[C@H](O)[C@@H](CO)O2)c(=O)[nH]c1=O	PRK	196	1 µg/mL
OC[C@H]1O[C@@H](c2cc(/C=C/I)c(F)cc2F)C[C@@H]1O	E6SM	LYONS	>400 µg/mL
OC[C@H]1O[C@@H](c2cc(C(F)(F)F)c(F)cc2F)C[C@@H]1O	E6SM	196	>400 µg/mL
O=C(O)P(=O)(O)O	HEL	HS-44 (TK-)	47 µM
OC[C@H]1O[C@H](c2cc(F)c(F)cc2F)C[C@@H]1O	E6SM	G	>400 µg/mL
Cc1cn([C@@H]2O[C@H](CO)[C@@H](O)[C@@H]2F)c(=O)[nH]c1=O	HEP-2	K979	<0.1 µg/mL
CSCc1cn([C@H]2C[C@H](O)[C@@H](CO)O2)c(=O)[nH]c1=O	PRK	G	4 µg/mL
CC(C)NS(=O)(=O)c1ccccc1C(=O)N/N=C/c1ccc(F)cc1	HEL	G	>100 µM
Cc1cc([C@H]2C[C@H](O)[C@@H](CO)O2)c(F)cc1Cl	E6SM	196	>400 µg/mL
CC(C)NS(=O)(=O)c1ccccc1C(=O)N/N=C/c1ccccc1	HEL	G	>100 µM
Nc1nc(=O)n([C@@H]2O[C@H](CO)[C@@H](O)[C@@H]2F)cc1I	HEP-2	K979	<0.03 µg/mL
CCc1cn([C@H]2C[C@H](O)[C@@H](CO)O2)c(=O)[nH]c1=O	PRK	196	4 µg/mL
Nc1ccn(C[C@@H](CO)OCP(=O)(O)O)c(=O)n1	HEL	HS-47 (TK+)	1.5 µM
O=c1[nH]c(=O)n([C@H]2C[C@H](O)[C@@H](CO)O2)cc1I	PRK	VCX304	0.4 µg/mL
C/C(=N/Nc1nc(-c2ccccc2)cs1)c1ccc(NC(=O)CN2C(=O)c3ccccc3S2(=O)=O)cc1	HEL	G	20 µM
O=c1[nH]c(=O)n([C@H]2C[C@H](O)[C@@H](CO)O2)cc1F	PRK	G	7 µg/mL

4 of the rows above, restated:

{"SMILES": "O=c1[nH]c(=O)n([C@H]2C[C@H](O)[C@@H](CO)O2)cc1F", "cells": "PRK", "strain": "G", "value": "7 µg/mL"}
{"SMILES": "CCCCCCCC/C=C/CCCCCCCC(=O)OCC(CO)OCn1cnc2c(=O)[nH]c(N)nc21", "cells": "HEL", "strain": "HS-47 (TK+)", "value": "0.0006 µM"}
{"SMILES": "Cc1cn([C@@H]2O[C@H](CO)[C@@H](O)[C@@H]2F)c(=O)[nH]c1=O", "cells": "HEP-2", "strain": "K979", "value": "<0.1 µg/mL"}
{"SMILES": "CC(C)NS(=O)(=O)c1ccccc1C(=O)N/N=C/c1ccccc1", "cells": "HEL", "strain": "G", "value": ">100 µM"}